Experimental data published in PMC9734910, “Close relatives of MERS-CoV in bats use ACE2 as their functional receptors” (2022).

Molecular target: PDF-2180 RBD–hFc (domain B fused to human IgG Fc domain) (PDF-2180 (bat coronavirus, infects Pipisrellus hesperidus))

“soluble Bat37ACE2 ectodomain (Pipistrellus pipistrellus ACE2)” was tested. Which Kd did it give?
Its Kd is 1.29 nM.
